Results of unrelated studies side by side (data: NIAID ChemDB).

Shared fields: enzyme or target tests; organism: Pneumocystis carinii

An empty or dashed field is not shown. Two numbers with a dash give a range or band. Conditions beyond the fields shown may differ between rows. ICn is the concentration giving n% inhibition. Percent inhibition refers to the dose given; in toxicity tests it is the harm to the cells.

SMILES	endpoint	protein	method	tested at	value
COc1cc(Cc2cnc(N)nc2N)cc(OCCNS(=O)(=O)c2ccc(N)cc2)c1Br	IC50	DHFR			0.97 µM
COc1ccc(NS(=O)(=O)c2ccc(N)cc2)nn1	IC50	DHPS			<0.05 µM
c1cc2nc(CCCCc3nc4ccc(C5=NCCN5)cc4[nH]3)[nH]c2cc1C1=NCCN1	IC50	Topoisomerase II			1.25 µM
COc1ncnc(NS(=O)(=O)c2ccc(N)cc2)c1OC	Ki	Oxidosqualene cyclase	HPLC		149 µM
CC1(C)N=C(N)N=C(N)N1c1ccc(N)cc1	IC50	DHFR			70.9 µM
Nc1ncc(Cc2ccc(OCc3ccccc3)cc2)c(N)n1	IC50	DHFR			16 µM
CC(CCCN)Nc1cc(O)c(O)c2cccnc12	inhibition	Dihydroorotate dehydrogenase		10 µM	0%
CC1(C)N=C(N)N=C(N)N1c1ccc(OCC(=O)Nc2cccc(S(=O)(=O)F)c2)cc1	IC50	DHFR			1 µM
Cc1ccnc(NS(=O)(=O)c2ccc(N)cc2)n1	IC50	DHPS			0.078 µM
Cc1cc(Cc2cnc(N)nc2N)cc2c1NN(C)C2	IC50	DHFR			18 µM
CC1(C)N=C(N)N=C(N)N1c1ccc(CCc2ccccc2)cc1	IC50	DHFR			0.57 µM
COc1c(Cc2cnc(N)nc2N)cc2c(c1OC)OCC2	IC50	DHFR			12.9 µM
Cc1cc(NS(=O)(=O)c2ccc(N)cc2)no1	Ki	DHPS			0.0075 µM
CC1(C)N=C(N)N=C(N)N1c1ccc(OCC(=O)Nc2ccccc2)c(Cl)c1	IC50	DHFR			0.3 µM
COc1cc(OC)cc(N2C3CCC2CC(OCc2cnc(N)nc2N)C3)c1	IC50	DHFR			0.016 µM
Nc1nc(N)c(-c2ccc(Cl)cc2)c(COc2ccc([N+](=O)[O-])cc2)n1	IC50	DHFR			85.1 µM
CC(=O)NS(=O)(=O)c1ccc(NC(=O)c2ccco2)cc1	IC50	DHPS			>10 µM
CC(C)N=C(N)c1ccc2nc(/C=C\c3nc4ccc(C(N)=NC(C)C)cc4[nH]3)[nH]c2c1	IC50	Topoisomerase I			6.25 µM
Nc1ccc(S(=O)(=O)c2ccc(N)cc2)cc1	Ki	Oxidosqualene cyclase	HPLC		9 µM
Nc1nc(N)c2nc(CN(CCO)c3ccc(C(=O)NC(CCC(=O)O)C(=O)O)cc3)cnc2n1	IC50	DHFR			0.00035 µM
N=C(N)c1ccc(-c2cc3ccc(C(=N)N)cc3[nH]2)cc1	IC50	Topoisomerase I			25–50 µM
CC(=O)NS(=O)(=O)c1ccc(NC(=O)c2ccccc2C(=O)O)cc1	IC50	DHPS			>10 µM
CN(Cc1cnc2nc(N)nc(N)c2n1)c1ccc(C(=O)N[C@@H](CCC(=O)O)C(=O)O)cc1Br	IC50	DHFR			0.00109 µM
Nc1ccc(S(=O)(=O)Nc2ccc(C(=O)O)cc2)cc1	IC50	DHPS			0.26 µM
CC1(C)N=C(N)N=C(N)N1c1ccc(OCCNS(=O)(=O)c2cccc(S(=O)(=O)F)c2)c(Cl)c1	IC50	DHFR			0.34 µM
NC(N)=NS(=O)(=O)c1ccc(N)cc1	IC50	DHPS			3.2 µM
CN(Cc1cnc2nc(N)nc(N)c2n1)c1c(F)cc(C(=O)N[C@H](CCC(=O)O)C(=O)O)cc1F	IC50	DHFR			0.00051 µM

2 of the rows above, restated:

SMILES,endpoint,protein,method,tested at,value
COc1cc(OC)cc(N2C3CCC2CC(OCc2cnc(N)nc2N)C3)c1,IC50,DHFR,,,0.016 µM
Nc1ncc(Cc2ccc(OCc3ccccc3)cc2)c(N)n1,IC50,DHFR,,,16 µM